# From doi:10.1101/2025.05.22.655646, “Structural insights into VRC01-class bnAb precursors with diverse light chains elicited in the IAVI G001 human vaccine trial” (bioRxiv, 2025)
# B1: G001_LD_V05_VRC01c_14 (antibody, V domains shown)
# VH: not shown
# VL: DIQMTQSPSSLSASVGDRVTITCQASQDINNYLNWYQQKPGKAPKLLIYDASNLETGVPSRFSGSGSGTDFTFTISSLQPEDIATYYCQQYEFFGGGTKVEIK
# Target: T1, eOD-GT8 (Human immunodeficiency virus 1, …)
# T1 construct: also called engineered outer domain germline-targeting version 8; eOD-GT8 monomer
# T1 chain: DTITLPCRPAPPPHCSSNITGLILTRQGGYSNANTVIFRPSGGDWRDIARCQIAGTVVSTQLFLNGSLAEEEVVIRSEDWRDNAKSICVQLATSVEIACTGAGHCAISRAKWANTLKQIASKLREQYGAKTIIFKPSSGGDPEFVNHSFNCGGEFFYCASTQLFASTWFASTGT
# Experiment: SPR
# Conditions: both partners purified
binder,measurement,value
B1,Kd,0.37 nM
